A mixed list of measured activities; the numbers were collected in NIAID ChemDB.

Common to all: whole-cell or culture tests; agent: Encephalomyocarditis virus

Conditions beyond the fields shown may differ between rows. An empty or dashed field is not shown. ECn is the concentration giving n% inhibition of infection, replication or growth.

compound	cells	method	measure	value
Cc1c(C(N)=O)ncn1C1OC(CO)C(O)C1O	-	cytopathic effect	EC50	>200 µg/mL
NS(=O)(=O)c1ccc(NC(=O)c2ccccc2[Se][Se]c2ccccc2C(=O)Nc2ccc(S(N)(=O)=O)cc2)cc1	-	-	MIC	600 µg/mL
NC(=O)c1csc([C@@H]2O[C@H](CO)[C@@H](O)[C@H]2O)n1	HeLa	cytopathic effect	EC50	43 µg/mL
N#Cc1c(N2CCOCC2)nsc1-c1ccccc1	L929	plaque count	EC50	>1 µg/mL
Cc1ccc(S(=O)(=O)Nc2ccccc2[Se][Se]c2ccccc2NS(=O)(=O)c2ccc(C)cc2)cc1	-	-	MIC	60 µg/mL
CCOC(=O)CSc1nsc(-c2ccccc2)c1C#N	L929	plaque count	EC50	>200 µg/mL
O=c1c2ccccc2[se]n1-c1cc([N+](=O)[O-])ccn1	-	-	MIC	500 µg/mL
N#Cc1c(N2CCCC2)nsc1-c1ccccc1	L929	plaque count	EC50	>7 µg/mL
O=c1c2cccnc2[se]n1N(c1ccccc1)c1cc(Cl)ccn1	-	-	MIC	100 µg/mL
O=c1c2ccccc2[se]n1-c1ccccc1	-	-	MIC	10 µg/mL
O=c1c2cccnc2[se]n1N(c1ccccc1)c1ccccn1	-	-	MIC	500 µg/mL
O=c1c2ccccc2[se]n1CC(O)C(O)C(O)C(O)CO	-	-	MIC	165.7 µM
C[n+]1cccc2c(=O)n(-c3ccccn3)[se]c21	-	-	MIC	2 µg/mL
O=C(CCC[Se][Se]CCCC(=O)Nc1ccc(S(=O)(=O)N2CCCCC2)cc1)Nc1ccc(S(=O)(=O)N2CCCCC2)cc1	-	-	MIC	>1000 µg/mL
Cn1[se]c2ncccc2c1=O	-	-	MIC	4 µg/mL
O=S(=O)(Nc1ccccc1[Se][Se]c1ccccc1NS(=O)(=O)c1ccccc1)c1ccccc1	-	-	MIC	200 µg/mL